In the assay the test system is Trypanosoma brucei brucei. Description: Trypanocidal activity against Trypanosoma brucei brucei s427 measured within 6 hrs by propidium iodide staining-based fluorimetric analysis. It is filed as functional, organism-based.

The structures appear in SMILES notation. Activity calls are given as the source filed them. The calls are words filed in the database; no cut-off is given here.

`O=[As]c1ccccc1` (stereo unspecified): the outcome was Active.

These data come from ChEMBL document CHEMBL3611982, “Lowering the pKa of a bisimidazoline lead with halogen atoms results in improved activity and selectivity against Trypanosoma brucei in vitro” (Eur J Med Chem, 2015).
